Results reported in US20250011397A1 (HOSPITAL FOR SICK CHILDREN, published 2025).
Values joined by “and” are separate entries in the source; they are usually repeats but may differ in a detail not shown here. Identical values can stand only once.

B1: mAb 80 (antibody, V domains shown)
VH: QVQLVQSGAEVKKPGSSVKVSCKASGGTFNRYAFSWVRQAPGQGLEWMGGIIPIFGTANYAQKFQGRVTITADESTSTAYMELSSLRSEDTAVYYCARSTRELPEVVDWYFDLWGRGTLVTVSS
VL: DIVMTQSPDSLAVSLGERATINCKSSQSVLYSSNNKNYLAWYQQKPGQPPKLLIYWASTRESGVPDRFSGSGSGTDFTLTISSLQAEDVAVYYCQQYYSAPLTFGGGTKVEIKR
notes: also called IgG 80; 80 mAb
B2: mAb 298 (antibody, V domains shown)
VH: QVQLVQSGAEVKKPGASVKVSCKASGGTFSTYGISWVRQAPGQGLEWMGWISPNSGGTDLAQKFQGRVTMTRDTSTSTVYMELSSLRSEDTAVYYCASDPRDDIAGGYWGQGTLVTVSS
VL: not shown
notes: also called IgG 298; antibody 298

What was measured:
[1] = target: T1, SARS-CoV-2 Spike on HIV-based pseudotyped virus (Spike plasmid BEI NR52310) (SARS-CoV-2, UniProt P0DTC2 14-1273); assay: cell-based or functional assay
[2] = target: T2, SARS-CoV-2 receptor binding domain (RBD), wild type, His-tagged (BEI NR52309) (SARS-CoV-2, UniProt P0DTC2 319-541); assay: RBD KD column; method and antibody format not stated
T2 construct: also called WT RBD

[3] = target: T1, SARS-CoV-2 Spike on HIV-based …; assay: cell-based or functional assay; remark: listed apart in the source
[4] = target: Spike of authentic SARS-CoV-2/SB2-P4-PB virus (SARS-CoV-2, UniProt P0DTC2 14-1273); assay: cell-based or functional assay

Row | Binder | Median IC50 (PsV neutralization) [1] | Kd [2] | IC50 SARS-CoV2 PsV (µg/mL), IgG [3] | IC50 SARS-CoV2/SB2-P4-PB (µg/mL), IgG [4]
1 | B1 | 0.1 µg/mL and 0.67 nM | 142 nM | 0.1 µg/mL | 12.7 µg/mL
2 | B2 | 0.28 µg/mL and 1.9 nM | 24 nM | 2.8 µg/mL | 2.2 µg/mL
